Anti-infective test results gathered from many reports (values: NIAID ChemDB through PubChem).

All rows: tests in culture; agent: Mycobacterium avium complex

Percent inhibition refers to the dose given; in toxicity tests it is the harm to the cells. An empty or dashed field is not shown. MIC50, MIC90 and the like: level of inhibition, or share of isolates inhibited. Rows are shuffled and stem from different studies.

compound	method	measure	tested at	strain	result
CO[C@H]1/C=C/O[C@@]2(C)Oc3c(C)c(O)c4c(O)c(c(/C=N/N5CCN(C)CC5)c(O)c4c3C2=O)NC(=O)/C(C)=C\C=C\[C@H](C)[C@H](O)[C@@H](C)[C@@H](O)[C@@H](C)[C@H](OC(C)=O)[C@@H]1C	-	MIC	-	3217	0.5 µg/mL
CC[C@@H](CO)NCCN[C@@H](CC)CO	-	MIC	-	2020-4	1.9 µg/mL
O=[N+]([O-])[O][Ga]([O][N+](=O)[O-])[O][N+](=O)[O-]	-	inhibition	500 µM	2	70%
NC[C@H]1O[C@H](O[C@H]2[C@H](O)[C@@H](O[C@H]3O[C@H](CO)[C@@H](O)[C@H](N)[C@H]3O)[C@H](N)C[C@@H]2N)[C@H](O)[C@@H](O)[C@@H]1O	-	MIC	-	Isolate C-28	≤12.5 µg/mL
CN[C@@H]1[C@@H](O)[C@@H](O[C@@H]2[C@@H](O)[C@H](O[C@H]3O[C@H](CN)CC[C@H]3N)[C@@H](N)C[C@H]2N)OC[C@]1(C)O	agar	inhibition	4 µg/mL	20 strains	65%
CN1CCN(c2cc3c(cc2F)c(=O)c(C(=O)O)cn3-c2ccc(F)cc2)CC1	-	MIC	-	3214	16 µg/mL
CO/N=C(/C(=O)N[C@@H]1C(=O)N2C(C(=O)[O-])=C(C[N+]3(C)CCCC3)CS[C@H]12)c1csc(N)n1	-	inhibition	32 µg/mL	14 strains	0%
CCC1CCN(c2c(F)cc3c(=O)c(C(=O)O)cn(C4CC4)c3c2F)C1	-	MIC	-	1172733	4 µg/mL
NCC[C@H](O)C(=O)N[C@@H]1C[C@H](N)[C@@H](O[C@H]2O[C@H](CN)[C@@H](O)[C@H](O)[C@H]2O)[C@H](O)[C@H]1O[C@H]1O[C@H](CO)[C@@H](O)[C@H](N)[C@H]1O	-	MIC	-	101	4 µg/mL
O=C(O)c1cn(C2CC2)c2c(F)c(N3CCN4CCC3C4)c(F)cc2c1=O	-	MIC	-	1988557	2 µg/mL
CC(C)N=c1cc2n(-c3ccc(Cl)cc3)c3ccccc3nc-2cc1Nc1ccc(Cl)cc1	-	MIC	-	542/HIV+	<0.12 µg/mL
CN1CC2CCC1CN2c1c(F)cc2c(=O)c(C(=O)O)cn(C3CC3)c2c1F	-	MIC90	-	14 strains	8 µg/mL
CC[C@@H](CO)NCCN[C@@H](CC)CO	-	MIC	-	3211	32 µg/mL
O=C(O)c1cn(C2CC2)c2c(F)c(N3CCS(=O)CC3)c(F)cc2c1=O	-	MIC90	-	14 strains	4 µg/mL
C[C@@H]1CN(c2c(F)c(N)c3c(=O)c(C(=O)O)cn(C4CC4)c3c2F)C[C@H](C)N1	broth dilution	MIC	-	18	1 µg/mL
CC1(CN)CCN(c2c(F)cc3c(=O)c(C(=O)O)cn(C4CC4)c3c2F)C1	-	MIC	-	PI12/39	32 µg/mL
Nc1ccc(C(=O)O)c(O)c1	agar	inhibition	10 µg/mL	97 strains	10%

Repeating the final 2 entries:

compound,method,measure,tested at,strain,result
CC1(CN)CCN(c2c(F)cc3c(=O)c(C(=O)O)cn(C4CC4)c3c2F)C1,-,MIC,-,PI12/39,32 µg/mL
Nc1ccc(C(=O)O)c(O)c1,agar,inhibition,10 µg/mL,97 strains,10%